Pooled drug test results. Numbers come from NIAID ChemDB, via PubChem.

Shared fields: growth or infection tests; agent: Candida albicans; endpoint: MIC90

MIC50, MIC90 and the like: level of inhibition, or share of isolates inhibited. Conditions beyond the fields shown may differ between rows. An empty or dashed field is not shown.

smiles | strain or isolate | read by | conditions | value
C/C(C=O)=C\c1ccccc1 | ATCC 44829 | agar diffusion |  | 250 µM
C=CCc1ccc(O)c(OC)c1 | 2781 | turbidity |  | 485 µg/mL
CCC(C)n1ncn(-c2ccc(N3CCN(c4ccc(OC[C@H]5CO[C@](Cn6cncn6)(c6ccc(Cl)cc6Cl)O5)cc4)CC3)cc2)c1=O | 10 isolates azole-resistant |  |  | 0.8 µg/mL
CCC(C)n1ncn(-c2ccc(N3CCN(c4ccc(OC[C@H]5CO[C@](Cn6cncn6)(c6ccc(Cl)cc6Cl)O5)cc4)CC3)cc2)c1=O | 19 strains (fluconazole-susceptible) |  |  | 0.25 µg/mL
Clc1ccc(C(Cn2ccnc2)OCc2cc3ccccc3o2)c(Cl)c1 |  |  |  | 26.8 µg/mL
C[C@H]1[C@H](O)[C@@H](C)/C=C/C=C/C=C/C=C/C=C/C=C/C=C/[C@H](O[C@@H]2O[C@H](C)[C@@H](O)[C@H](N)[C@@H]2O)C[C@@H]2O[C@](O)(C[C@@H](O)C[C@@H](O)CC[C@H](O)[C@@H](O)C[C@@H](O)CC(=O)O[C@H]1C)C[C@H](O)[C@H]2C(=O)O | 40 isolates azole-susceptible |  |  | 0.2 µg/mL
CC(=O)OCC1C=C(c2cccc(Cl)c2)C(=O)O1 | 9 isolates fluconazole-resistant |  |  | 2 µg/mL
C=CCSS(=O)CC=C.OC(Cn1cncn1)(Cn1cncn1)c1ccc(F)cc1F | ATCC 14053 |  |  | 0.25 µg/mL
CCC(C)n1ncn(-c2ccc(N3CCN(c4ccc(OC[C@H]5CO[C@](Cn6cncn6)(c6ccc(Cl)cc6Cl)O5)cc4)CC3)cc2)c1=O | Fluconazole-resistant |  |  | 2 µg/mL
Clc1ccc(C(Cn2ccnc2)OCc2csc3c(Cl)cccc23)c(Cl)c1 | 63 isolates | absorbance | 24 h | 2 µg/mL
Clc1cccc(Cl)c1COc1ccc(C(c2cccc3ccccc23)n2ccnc2)cc1.O=[N+]([O-])O | 17 strains |  |  | ≥256 µg/mL
C[C@H]1[C@H](O)[C@@H](C)/C=C/C=C/C=C/C=C/C=C/C=C/C=C/[C@H](O[C@@H]2O[C@H](C)[C@@H](O)[C@H](N)[C@@H]2O)C[C@@H]2O[C@](O)(C[C@@H](O)C[C@@H](O)CC[C@H](O)[C@@H](O)C[C@@H](O)CC(=O)O[C@H]1C)C[C@H](O)[C@H]2C(=O)O | Fluconazole-resistant 4 isolates pooled |  |  | 0.5 µg/mL
CCC(C)n1ncn(-c2ccc(N3CCN(c4ccc(OC[C@H]5CO[C@](Cn6cncn6)(c6ccc(Cl)cc6Cl)O5)cc4)CC3)cc2)c1=O | TIMM1768 (azole-susceptible) |  |  | 0.0063 µg/mL
Clc1ccc(C(Cn2ccnc2)OCc2ccc3c(c2)OCO3)c(Cl)c1 |  |  |  | 10.7 µg/mL
Fc1ccc(C(c2cccc3ccccc23)n2ccnc2)cc1 | 23 strains |  |  | 16 µg/mL
CC(N1CCN(c2ccc(-n3cnn(Cc4ccc(OC(F)(F)F)cc4)c3=O)cc2)CC1)C(O)(Cn1cncn1)c1ccc(F)cc1F | 6 strains (fluconazole-resistant) |  |  | 0.19 µg/mL
Nc1[nH]c(=O)ncc1F | 58 strains |  |  | 0.5 µg/mL
CCC(C)n1ncn(-c2ccc(N3CCN(c4ccc(OC[C@H]5CO[C@](Cn6cncn6)(c6ccc(Cl)cc6Cl)O5)cc4)CC3)cc2)c1=O | 63 isolates |  |  | 0.015 µg/mL
c1ccc(C(c2ccccc2)n2cnc3ccccc32)cc1 |  | agar |  | >256 µg/mL
OC(Cn1cncn1)(Cn1cncn1)c1ccc(F)cc1F | Isolate HR-Micro |  | 24 h | 12.5 µg/mL
Clc1ccc(C(Cn2ccnc2)OCc2cccc3ccccc23)c(Cl)c1 |  |  |  | 23.8 µg/mL
C=CCSS(=O)CC=C.CC(=O)N1CCN(c2ccc(OC[C@H]3CO[C@](Cn4ccnc4)(c4ccc(Cl)cc4Cl)O3)cc2)CC1 | ATCC 14053 |  |  | 0.125 µg/mL
Clc1ccc(C(c2ccc3ccccc3c2)n2ccnc2)s1 | 23 strains |  |  | 4 µg/mL
O=C(c1ccccc1)C(c1ccccc1)n1nnc2ccccc21 |  | agar |  | >256 µg/mL
Clc1ccc(C(Cn2cncn2)OCc2cc3ccccc3o2)c(Cl)c1 |  |  |  | >100 µg/mL
c1csc(C(c2nccc3ccccc23)n2ccnc2)c1 | 44 strains |  |  | 128 µg/mL
Clc1ccc(C(c2ccccc2)N2CCN(CCn3ccnc3)CC2)cc1 |  | agar |  | >256 µg/mL
Clc1ccc(COC(Cn2cncn2)c2cc3ccccc3o2)c(Cl)c1 |  |  |  | >100 µg/mL
O=C(c1ccccc1)C(c1ccccc1)n1cncn1 |  | agar |  | 64 µg/mL
c1ccc(C(c2ccc3ccccc3c2)n2ccnc2)cc1 | 23 strains |  |  | 8 µg/mL
O=[N+]([O-])O.c1ccc(-c2ccc(C(c3nccc4ccccc34)n3ccnc3)cc2)cc1 | 44 strains |  |  | 256 µg/mL
O=C(c1ccccc1)C(c1ccccc1)n1ccnc1 |  | agar |  | >256 µg/mL
CC(N1CCN(c2ccc(-n3cnn(Cc4ccc(OC(F)(F)F)cc4)c3=O)cc2F)CC1)C(O)(Cn1cncn1)c1ccc(F)cc1F | 6 strains (fluconazole-resistant) |  |  | 0.19 µg/mL
Clc1ccc(COc2ccc(C(c3nccc4ccccc34)n3ccnc3)cc2)c(Cl)c1 | 17 strains |  |  | ≥256 µg/mL
C=CCSS(=O)CC=C | Clinical Isolate 0163 | broth dilution |  | 12.5 µg/mL
Clc1ccc(COC(Cn2cncn2)c2ccc3ccccc3c2)c(Cl)c1 |  |  |  | >100 µg/mL
Fc1ccc(C(c2ccc3ccccc3c2)n2ccnc2)cc1 | 23 strains |  |  | 16 µg/mL
Fc1ccc(COc2ccc(C(c3nccc4ccccc34)n3ccnc3)cc2)cc1 | 17 strains |  |  | ≥256 µg/mL
COc1ccc(C(c2cccc3ccccc23)n2ccnc2)cc1 | 23 strains |  |  | 32 µg/mL
CC(=O)OCC1C=C(c2ccc(Br)cc2)C(=O)O1 | 25 isolates |  |  | 1 µg/mL
c1ccc(C(c2ccccc2)n2ccnc2)cc1 |  | agar |  | 1 µg/mL
Clc1ccc(C(Cn2cncn2)OCc2ccc3c(c2)OCO3)c(Cl)c1 |  |  |  | >100 µg/mL

Repeating the final 5 entries:

| smiles | strain or isolate | read by | conditions | value |
|---|---|---|---|---|
| Fc1ccc(COc2ccc(C(c3nccc4ccccc34)n3ccnc3)cc2)cc1 | 17 strains |  |  | ≥256 µg/mL |
| COc1ccc(C(c2cccc3ccccc23)n2ccnc2)cc1 | 23 strains |  |  | 32 µg/mL |
| CC(=O)OCC1C=C(c2ccc(Br)cc2)C(=O)O1 | 25 isolates |  |  | 1 µg/mL |
| c1ccc(C(c2ccccc2)n2ccnc2)cc1 |  | agar |  | 1 µg/mL |
| Clc1ccc(C(Cn2cncn2)OCc2ccc3c(c2)OCO3)c(Cl)c1 |  |  |  | >100 µg/mL |